The results in this text go back to ChEMBL document CHEMBL4196120, “Inhibition of Connexin Hemichannels by New Amphiphilic Aminoglycosides without Antibiotic Activity” (ACS Med Chem Lett, 2018).

Each structure is given as a SMILES string. Calls of active or inactive are those of the source. The rule behind the calls is not given here.

The assay deals with Gap junction beta-2 protein (Homo sapiens) (UniProt P29033). Kind of assay: Inhibition of recombinant human Cx26 expressed in Escherichia coli LB2003 assessed as reduction in cell growth at 100 uM measured after 18 hrs.

`[N-]=[N+]=NC[C@H]1O[C@H](O[C@H]2[C@H](O)[C@@H](O[C@@H]3O[C@H](CO)[C@@H](O)[C@H](N=[N+]=[N-])[C@H]3O)[C@H](N=[N+]=[N-])C[C@@H]2N=[N+]=[N-])[C@H](O)[C@@H](O)[C@@H]1O`: the inhibition entry was “inactive”.
